According to patent publication EP1143976B9, “BETA-D-2', 3' -DIDEHYDRO-2', 3' -DIDEOXY-5-FLUO[…] USE IN THE TREATMENT OF HIV INFECTIONS” (priority 1999, dated 2000):

Test system: HIV-1 in acutely infected human PBM cells
Assay: Median effect and combination index analysis in acutely infected human PBM cells (Day 6)
Format: cell-based
From the text: Table 5 provides the median effective concentration and combinations index (C.I.) values for D-D4FC alone and in combination with AZT and D4T in acutely infected human PBM cells (Day6). Table 6 describes the effect of β-D and β-L-D4FC against HIV-1 and cloned viruses I human PBM cells.

[1] = slope ± S.E. of the median effect plot, human PBM cells, Day 6

Cc1cn([C@H]2C[C@H](N=[N+]=[N-])[C@@H](CO)O2)c(=O)[nH]c1=O [AZT, 3'-azido-3'-deoxythymidine]
m±SE: 0.96±0.17

Cc1cn([C@H]2C=C[C@@H](CO)O2)c(=O)[nH]c1=O [D4T, 2',3'-dideoxy-2',3'-didehydrothymidine]
m±SE [1]: 0.82±0.16

Nc1nc(=O)n([C@H]2C=C[C@@H](CO)O2)cc1F [D-D4FC, β-2',3'-didehydro-2',3'-dideoxy-5-fluorocytidine]
m±SE [1]: 0.95±0.17

Like-named read-outs stand apart in the source and are kept apart here. The amount applied is not stated for every result.
